# Results of single-concentration screens

Source: ChEMBL document CHEMBL3988442, “University of Dundee, Small-Polar-MMV Screening Library” (2021).

A: 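Growth of Mycobacterium tuberculosis over 3 days (7H9 medium with glucose and tyloxapol); the read-out is not stated. Tested at 500 µM. Direction is inferred from retests: higher values go with more growth inhibition. Of about 18,000 compounds tested this way, about 1,400 (7.9%) reached 50% or more in at least one test.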
B: 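Growth of Mycobacterium tuberculosis over 4 days (cholesterol / DPPC medium with tyloxapol); the read-out is not stated. Compounds at 500 µM. Higher reads as more growth inhibition (inferred: compounds with an IC50 in retests scored well above the rest). Size under these conditions: about 18,000 compounds, about 900 of them at 50% or above in at least one test.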

Values are the deposited “Percent Effect”, in %. How 0% and 100% were set is not recorded. Most values in the screen are low, and negative values occur. The entries come from a sample that favours strong results.

* CN1CCC(=O)CC1c1ccccc1 (centres undefined) : A: -76.49%
* COc1cccc(C(=O)Nc2ccnn2C(C)C)c1 : A: 53.41%; B: 56.04%
* CCCn1ncnc1C(C)NC(=O)c1cnccn1 (centres undefined) : A: 11.72%
* Cc1cc(NC(=O)NCC(O)c2ccccc2F)no1 (centres undefined) : A: -10.63%
* Cc1cccnc1NCCNC(=O)Cc1ccsc1 : B: 1.933%
* CCC(C)(C)NCC(=O)Nc1cccc(C(=O)NC)c1 : A: 5.544%
* COc1cc(Br)cc(C)c1NC(=O)CNC(C)=O : B: 4.069%
* N#CC1(C(=O)N2CCc3sccc3C2)CCCC1 : A: 82.32%; B: 80.87%
* CNS(=O)(=O)CCNC(=O)[C@@]12CNC[C@@H]1CN(C)C2 : B: -5.047%
* Cc1nocc1CN : B: -0.8503%
* CCc1cc(CNC(=O)c2ccc(F)c(F)c2)[nH]n1 : A: 70.12%; B: 71.76%
* CCn1ccnc1CNc1ccn(CCCOC)n1 : A: 4.151%
* O=C(NCc1nnc2ccccn12)C1CCOCC1 : B: -17.68%
* CN(CC(=O)N1CCNC1=O)Cc1ccco1 : A: -9.014%
* Cc1nc(NC(=O)c2cccs2)sc1C(=O)N(C)C : B: 20.3%
* COC(=O)C(C)N(c1cc(Cl)ccc1OC)S(C)(=O)=O (centres undefined) : B: 13.62%
* NC(=O)CCN1CCCC(CO)(CC2CC2)C1 (centres undefined) : A: -4.669%
* CN(C)c1cc(CNC(=O)NCC2CCOC2)ccn1 (centres undefined) : A: 0.01208%
* COCC(C)NCc1ccccc1CN1CCCC1=O (centres undefined) : A: 4.86%
* CC(C#N)N1CCC(CNS(C)(=O)=O)CC1 (centres undefined) : A: 4.528%
* OC1(c2scnc2Br)CCNCC1 : A: -3.576%
* Cc1cccc(CNC(=O)c2ccc(C#N)nc2)n1 : A: 18.24%
* COc1cccc(F)c1C(C)NC(=O)c1nccn1C (centres undefined) : A: 82.52%; B: 69.69%
* COCCOc1cccc(CNCCNS(C)(=O)=O)c1 : A: 17.03%
* NC1CCCN(c2ccccc2Cl)C1=O (centres undefined) : A: -0.776%
* CN(C(=O)Cc1ccc(Cl)cc1Cl)C1CCS(=O)(=O)C1 (centres undefined) : A: 24.18%
* COCc1ccc(C(=O)NCc2cccc(F)c2)o1 : A: 65.52%; B: 59.12%
* CN(Cc1cc[nH]n1)C(=O)C1COc2ccccc2C1 (centres undefined) : A: 28.57%
* CCCS(=O)(=O)N(C)Cc1ccc(OCC)cn1 : A: 75.34%; B: 69.15%
* CC1CNCCN1C1CCN(C)CC1 (centres undefined) : B: -8.893%
* Cc1cncc(-c2cc(NCCO)nc(N)n2)c1 : A: -2.967%; B: 2.971%
* Cc1cccc(CN(CC(N)=O)Cc2ccccn2)c1 : A: 59.32%; B: 31.37%
* CC(=O)NCCCN1CCC(CNc2ccccn2)C1 (centres undefined) : A: 9.7%
* COCCS(=O)(=O)NC(C)C1CC1 (centres undefined) : A: 6.918%
* CNC(=O)C(C)(C)Oc1cccc(Cl)c1 : A: 68.29%
* O=C(Nc1ccon1)c1n[nH]cc1I : A: 12.71%
* Cc1ccc(NC(=O)C(C)N)cc1 (centres undefined) : B: -1.696%
* CCNC(=O)C1CCN(Cc2cc(C)no2)CC1 : A: 1.978%
* CCc1ccc(CNC(=O)N2CCC(C(N)=O)CC2)s1 : A: 4.54%

The last 3 entries again:

- Cc1ccc(NC(=O)C(C)N)cc1 (centres undefined) : B: -1.696%
- CCNC(=O)C1CCN(Cc2cc(C)no2)CC1 : A: 1.978%
- CCc1ccc(CNC(=O)N2CCC(C(N)=O)CC2)s1 : A: 4.54%